Like-named read-outs stand apart in the source and are kept apart here.
How the values were obtained:
HBV = HBV replication in chronically infected HepG2 2.2.15 cells (TaqMan PCR of HBV DNA); format: cell-based, Hepatitis B virus; set-up: unit not given beside the values
Procedure: Human HepG2-2.2.15 cells (ATCC Cat. No. CRL-11997), chronically infected with HBV, are plated in 96-well microtiter plates in DMEM medium supplemented with fetal bovine serum. After incubation at 37° C. in a humidified, 5% CO2 environment for 16-24 hours, the monolayer of HepG2-2.2.15 cells is washed and the medium is replaced with complete medium containing various concentrations of test compound. Every three days during the experiments, the culture medium is replaced with fresh medium containing the appropriately diluted test compound. Six days following the initial administration of the test compound, the cell culture supernatant is collected and clarified by centrifugation. The cell viability is evaluated by a dye uptake procedure (Promega's Cell Titer Aqueous One Solution). Virion-associated HBV DNA present in the tissue culture supernatant is amplified employing PCR technology using primer pairs derived from the HBV strain ayw. Subsequently, the PCR-amplified HBV DNA is detected in real-time by monitoring increases in fluorescence signals that result from exonucleolytic degradation of a quenched fluorescent probe molecule following hybridization of the probe to the amplified HBV DNA (TaqMan; Perkin-Elmer).

[1] = system: Respiratory Syncytial Virus (Long); format: cell-based
Procedure: A cytoprotection assay procedure using MTS is employed to evaluate compounds for antiviral activity against Respiratory Syncytial Virus (Long) in Vero (African green monkey, ATCC Cat. No. CCL-81) cells. The cells are pre-grown overnight at 37° C. (2×10^4/well in 96 well tissue culture plates) with 10% fetal Bovine serum containing Minimum Essential Medium. The positive control for the assay is Interferon-Gamma/Ribavirin. The infection medium contains reduced serum levels (2% FBS).
Using half log dilutions with high test starting at 100 μg/ml the drug dilutions are made and added to triplicate cultures in 0.1 ml volume and pre-titrated virus suspension is also added in 0.1 ml volume. […] CPE inhibition is determined by dye uptake procedure (Celltiter-MTS). […] The amount of soluble formazan produced by cellular reduction of the MTS is measured by the absorbance at 490 nm. The quantity of formazan product as measured by the amount of 490 nm absorbance is directly proportional to the number of living cells in the culture thus allowing the rapid quantitative analysis of the inhibition of virus-induced cell killing by the test substances. […]
The inhibitory drug concentration which reduces the viral replication by 95% (IC95) and the minimum drug concentration which inhibits cell growth by 95% (TC95) are calculated by using a regression analysis program for semilog curve fitting. […]

CC(=NNC(=N)N)c1cc(NC(=O)CCCCCCCCC(=O)Nc2cc(C(C)=NNC(=N)N)cc(C(C)=NNC(=N)N)c2)cc(C(C)=NNC(=N)N)c1 [Compound 4, N,N′-bis (3,5-diacetylphenyl) decane diamide tetrakis (amidinohydrazone)]
TI50 Intracellular Viral DNA (HBV; TC50 divided by IC50 (Intracellular Viral DNA)): >4.03 | TI50 Virion-DNA (HBV; TC50 divided by IC50 (Virion-DNA)): >6.27 | TI ([1]; TC50 divided by IC50): 5.95 | TI ([1]; TC95 divided by IC95): 10.20

From patent publication US20030203969A1, “Pharmaceutically active aromatic guanylhydrazones” (priority 2000, published 2003)
